Compound potency records, mixed from different reports. Data source: NIAID ChemDB in PubChem.

Shared fields: target-level tests

Blank or dashed fields: not listed here.

| compound | tested at | organism | target | strain | measure | method | value |
|---|---|---|---|---|---|---|---|
| Cc1ccccc1/C(N)=N\OC(=O)c1cccc2ccccc12 | - | Human cytomegalovirus | Polymerase | - | IC50 | scintillation proximity / radiometric | >100 µM |
| CC(C)c1cc(C(C)C)c(C(=O)Nc2nnc(NCCN3CCCC3)s2)c(C(C)C)c1 | - | Human cytomegalovirus | Polymerase | - | IC50 | - | >25 µM |
| O=C(NCc1ccccc1)c1cc2ccccc2cc1O | - | Human cytomegalovirus | HCMV DNA polymerase | - | IC50 | - | >100 µM |
| Nc1nc2c(ncn2COC(CO)COP(=O)(O)OP(=O)(O)OP(=O)(O)O)c(=O)[nH]1 | - | Human herpesvirus 6 | DNA polymerase | Z29 (TYPE 6B) | IC50 | - | 5.56 µM |
| Oc1ccccc1C=NCCN=Cc1ccccc1O | - | Human cytomegalovirus | Proteinase | - | IC50 | - | >372 µM |
| COC(=O)[C@H](Cc1cc(I)c(OC)c(I)c1)Nc1nc2ccc(NC(=O)OC(C)(C)C)c(C)c2c(=O)o1 | - | Human cytomegalovirus | Protease | - | IC50 | - | 0.25 µM |
| Cn1cc(C(=O)NCc2ccc(Cl)cc2)c(=O)c2cc(CN3CCOCC3)ccc21 | - | Human cytomegalovirus | DNA polymerase | AD169 | IC50 | scintillation proximity / radiometric | 0.7 µM |
| CCSCCNc1nnc(NC(=O)c2c(Cl)cccc2Cl)s1 | - | Human cytomegalovirus | Polymerase | - | IC50 | - | >25 µM |
| CC(=O)C(C(=O)OCc1ccccc1)C1=C(Cl)C(=O)c2ccccc2C1=O | - | Human cytomegalovirus | Protease | - | IC50 | HPLC | 4.8 µM |
| O=C(O)CP(=O)(O)O | 2 µg/mL | Human herpesvirus 6 | DNA polymerase | TYPE 6 | inhibition | - | 31.7% |
| Cc1cccc(C(=O)O/N=C(\N)c2ccc(Cl)cc2Cl)c1 | - | Human cytomegalovirus | Polymerase | - | IC50 | scintillation proximity / radiometric | 16 µM |
| CCOc1ccc2ccccc2c1C(=O)Nc1nnc(NCCc2ccc(S(N)(=O)=O)cc2)s1 | - | Human cytomegalovirus | Polymerase | - | IC50 | - | >25 µM |
| O=C1C(Cl)=C(C2CCCCCC2)C(=O)c2ccccc21 | - | Human cytomegalovirus | Protease | - | IC50 | scintillation proximity | 110 µM |
| Cc1ccc(/C(N)=N\OC(=O)c2cccc3ccccc23)cc1 | - | Human cytomegalovirus | Polymerase | - | IC50 | scintillation proximity / radiometric | 100 µM |
| Cc1ccc(C(=O)Nc2nnc(NCCCNC3CCCCC3)s2)cc1 | - | Human cytomegalovirus | Polymerase | - | IC50 | - | <25 µM |
| O=C(Nc1ccc(Br)cc1)c1cc2ccccc2cc1O | - | Human cytomegalovirus | HCMV DNA polymerase | - | IC50 | - | 22.7 µM |
| Cc1cccc2nc(N(C)Cc3ccccc3)oc(=O)c12 | - | Human cytomegalovirus | Protease | - | IC50 | - | 10 µM |
| O=C(Nc1nnc(NCCCNC2CCCCC2)s1)c1ccc(Cl)c(Cl)c1 | - | Human cytomegalovirus | Polymerase | - | IC50 | - | >25 µM |
| COc1ccc2cc(O)c(C(=O)Nc3ccc(Cl)cc3)cc2c1 | - | Human cytomegalovirus | HCMV DNA polymerase | - | IC50 | - | >100 µM |
| Nc1nc2c(ncn2CC[C@@H](O)COP(=O)(O)OP(=O)(O)OP(=O)(O)O)c(=O)[nH]1 | - | Human cytomegalovirus | DNA polymerase | AD169 | IC50 | - | 45 µM |
| Cc1cc(Cl)ccc1/C(N)=N\OC(=O)c1cccc2ccccc12 | - | Human cytomegalovirus | Polymerase | - | IC50 | scintillation proximity / radiometric | 3.9 µM |
| CC[C@H](C)[C@H](Nc1nc2cccc(C)c2c(=O)o1)C(=O)OC | - | Human cytomegalovirus | Protease | - | IC50 | - | 1.2 µM |
| O=C(c1cc2ccccc2cc1O)N1CCN(c2cccc(Cl)c2)CC1 | - | Human cytomegalovirus | HCMV DNA polymerase | - | IC50 | - | 30 µM |
| COc1ccc(C(=O)O/N=C(\N)c2ccc(Cl)cc2Cl)cc1 | - | Human cytomegalovirus | Polymerase | - | IC50 | scintillation proximity / radiometric | >100 µM |
| O=C(Nc1nnc(NCCCCc2ccccc2)s1)c1ccc(Cl)c(Cl)c1 | - | Human cytomegalovirus | Polymerase | - | IC50 | - | >25 µM |
| O=C(Nc1ccc(Cl)cc1)c1cc(O)c2ccccc2c1O | - | Human cytomegalovirus | HCMV DNA polymerase | - | IC50 | - | 14.4 µM |
| Nc1nc2c(ncn2CC[C@H](O)COP(=O)(O)OP(=O)(O)OP(=O)(O)O)c(=O)[nH]1 | - | Human cytomegalovirus | DNA polymerase | AD169 | IC50 | - | >150 µM |
| COc1ccc(C2CC2(Nc2nc3ccc(CNC(=O)CN(C)C)c(C)c3c(=O)o2)C(=O)N2CCCC2)cc1 | - | Human cytomegalovirus | Protease | - | IC50 | - | 1.1 µM |
| O=C(Nc1nnc(NCc2ccco2)s1)c1c(Cl)cccc1Cl | - | Human cytomegalovirus | Polymerase | - | IC50 | - | >25 µM |
| COC(=O)[C@@H](Nc1nc2cccc(C)c2c(=O)o1)C(C)C | - | Human cytomegalovirus | Protease | - | IC50 | - | 0.68 µM |
| Cc1cccc(C)c1C(=O)O/N=C(\N)c1ccc(Cl)cc1Cl | - | Human cytomegalovirus | Polymerase | - | IC50 | scintillation proximity / radiometric | 32 µM |
| O=C(c1cc2ccccc2cc1O)N1CCN(c2ccc([N+](=O)[O-])cc2)CC1 | - | Human cytomegalovirus | HCMV DNA polymerase | - | IC50 | - | 27.5 µM |
| CCCC[C@H](Nc1nc2cccc(C)c2c(=O)o1)C(=O)OC | - | Human cytomegalovirus | Protease | - | IC50 | - | 0.41 µM |
| O=C(/C=C/c1ccccc1Cl)Nc1nnc(NCc2ccc(F)cc2)s1 | - | Human cytomegalovirus | Polymerase | - | IC50 | - | <25 µM |
| COC(=O)CC1=C(Cl)C(=O)c2ccccc2C1=O | 150 µM | Human cytomegalovirus | Protease | - | inhibition | scintillation proximity | 11% |
| Nc1nc2c(ncn2COCCOP(=O)(O)OP(=O)(O)OP(=O)(O)O)c(=O)[nH]1 | - | Human cytomegalovirus | DNA polymerase | AD169 | Ki | - | 0.0076 µM |
| C[C@@H](Nc1nc2ccc(Cl)cc2c(=O)o1)c1ccccc1 | 10 µM | Human cytomegalovirus | Protease | - | inhibition | - | 43% |
| CC(=NCCN=C(C)c1ccccc1O)c1ccccc1O | - | Human cytomegalovirus | Proteinase | - | IC50 | - | >367 µM |
| N/C(=N\OC(=O)c1c(Cl)cccc1Cl)c1ccc(Cl)cc1Cl | - | Human cytomegalovirus | Polymerase | - | IC50 | scintillation proximity / radiometric | 37 µM |
| O=C(NCc1ccc(Cl)cc1)c1c[nH]c2ccc(CCCO)cc2c1=O | - | Human cytomegalovirus | Herpesvirus DNA polymerase | - | Ki | - | 0.35 µM |
| Cc1ccc(/C(N)=N\OC(=O)c2cccc3ccccc23)cc1Cl | - | Human cytomegalovirus | Polymerase | - | IC50 | scintillation proximity / radiometric | >100 µM |
| O=C(NCc1ccc(Cl)cc1)c1cn2c3c(cc(CN4CCOCC4)cc3c1=O)OC(c1ccccn1)C2 | - | Human cytomegalovirus | HCMV polymerase | - | IC50 | scintillation proximity / radiometric | 0.27 µM |

The last 5 rows once more:

compound | tested at | organism | target | strain | measure | method | value
CC(=NCCN=C(C)c1ccccc1O)c1ccccc1O | - | Human cytomegalovirus | Proteinase | - | IC50 | - | >367 µM
N/C(=N\OC(=O)c1c(Cl)cccc1Cl)c1ccc(Cl)cc1Cl | - | Human cytomegalovirus | Polymerase | - | IC50 | scintillation proximity / radiometric | 37 µM
O=C(NCc1ccc(Cl)cc1)c1c[nH]c2ccc(CCCO)cc2c1=O | - | Human cytomegalovirus | Herpesvirus DNA polymerase | - | Ki | - | 0.35 µM
Cc1ccc(/C(N)=N\OC(=O)c2cccc3ccccc23)cc1Cl | - | Human cytomegalovirus | Polymerase | - | IC50 | scintillation proximity / radiometric | >100 µM
O=C(NCc1ccc(Cl)cc1)c1cn2c3c(cc(CN4CCOCC4)cc3c1=O)OC(c1ccccn1)C2 | - | Human cytomegalovirus | HCMV polymerase | - | IC50 | scintillation proximity / radiometric | 0.27 µM

Conditions beyond the fields shown may differ between rows. ICn: concentration for n% inhibition. Inhibition is in % at the dose shown (toxicity tests: loss of growth or viability).